Where two headings read alike, the source gives them in different places.
What was measured:
[1] = tested on: NRTI-resistant HIV-1 strain 7396; type: cell-based; conditions: NRTI-resistant 7396, TZM-bl
Procedure: (§1) Fig 7 (A–C) TZM-bl cells (1 × 10^4 cells/well) cultured in a 96-well plate were treated with fivefold serial dilutions of the indicated compound or ARV for 1 h before infection with the HIV-1NL4-3 or ARV-resistant HIV-1 strains at an MOI of 1, respectively. At 48 h after infection, the EC50 values were determined using an F-Luc activity. The symbols represent the fold-change values of EC50 against each mutant virus relative to the wild-type (WT) virus. (D) PBMCs (5 × 10^4 cells/well) were infected with the HIV-1NL4-3 and PIs-resistant HIV-1 strain at an MOI of 0.1, respectively. Subsequently, the PBMCs were treated with 10-fold serial dilutions of the indicated compounds or PI. At 3 days after infection, the EC50 values on the viral replication were determined using a p24 […] assay kit. (E) The inhibitory kinetics for the WT and ARV-resistant viruses. TZM-bl cells infected with WT or ARV-resistant viruses were cultured upon fivefold serial dilutions of each compound for 2 days and the infectivity was determined using an F-Luc activity.
(§2) The Tzm-bl-derived dual Tat reporter; TZM-bl/Tat/Rluc (bl-DTR) cells were established from TZM-bl cells using two Dox-inducible lentiviral expression cassettes cloned with Flag-tagged Tat86 and the R-Luc gene, as described in our previous study ([11]). TZM-bl, A3.01, J1.1, and J-Lat 6.3 cells as well as the HIV-1 molecular clone pNL4-3, pNL(AD8), ARV-resistant HIV-1 strains, and HIV-1NL43-IRES-eGFP (pBR43IeG-nef^+, gifted by Dr. Frank Kirchhoff) ([52]) were provided by the National Institute of Health HIV Reagent Program (NIH, Bethesda, MD, USA). HeLa (CCL-2) and 293T (CRL-3216) cell lines were purchased from the American Type Culture Collection (ATCC, Manassas, VA, USA). The bl-DTR, TZM-bl, HeLa, and 293T cells were cultured in Dulbecco’s modified Eagle’s medium supplemented with 1% penicillin–streptomycin and 10% (vol/vol) heat-inactivated fetal bovine serum (all from Gibco-BRL, Gaithersburg, MD, USA), and 1 µg/mL of puromycin and 200 µg/mL of zeocin were additionally supplemented for the bl-DTR cells. PBMCs were purchased from AllCells (Alameda, CA, USA) and cultured as previously described ([12]). The information on ARV-resistant HIV-1 strains was described in previous reports as follows: NNRTI-resistant 12241 and 12243 ([53]); NRTI-resistant 7396, 7406, and 7407 ([54]); INSTI-resistant 11847 and 11849 ([55], [56]); and PI-resistant 11800 and 11803 ([57]). Each molecular HIV-1 clone was transfected to 293T cells, as previously described ([58]), to obtain infectious HIV-1 particles. Virus-containing cell culture supernatants were collected 3 days after transfection, and filtered through a 0.45-µm membrane filter (Millipore Sigma, Burlington, MA, USA) to remove cell debris. The viral titration was performed as described previously ([59]) with some minor modifications. In brief, 1 × 10^4 TZM-bl cells seeded in 96-well plates were infected with 200 µL of virus-containing medium diluted serially twofold. The incubation was for 2 days and the experiment was performed in triplicate; the infection time minimized the virus spread ([59]). The titration of the infectious viral particles was performed with a ß-Gal staining assay using the ßeta-Galactosidase Staining Kit (Mirus Bio, Madison, WI, USA) following the manufacturer’s protocols. In brief, the infected cells were washed with phosphate-buffered saline (PBS) and fixed using a Cell Fixative Working solution. The cells were washed with PBS and stained using the Cell Staining Working Solution containing X-gal. The infected blue-colored cells were counted under a microscope (100× magnification). The infectious virus titer was determined as a mean value of blue-colored cells count × dilution factor and used for determining the multiplicity of infection (MOI) in each infection experiment.

[2] = tested on: NRTI-resistant HIV-1 strain 7406; type: cell-based; conditions: NRTI-resistant 7406, TZM-bl
Procedure: as §1, §2

[3] = tested on: NRTI-resistant HIV-1 strain 7407; type: cell-based; conditions: NRTI-resistant 7407, TZM-bl
Procedure: as §1, §2

[4] = tested on: NRTI-resistant HIV-1 strains; conditions: range over three NRTI-resistant strains, relative to wild type, TZM-bl
[5] = tested on: INSTI-resistant HIV-1 strain 11849; type: cell-based; conditions: INSTI-resistant 11849, TZM-bl
Procedure: as §1, §2

[6] = tested on: PI-resistant HIV-1 strain 11800; type: cell-based; conditions: PI-resistant 11800, TZM-bl
Procedure: as §1, §2

[7] = tested on: INSTI-resistant HIV-1 strain 11847; type: cell-based; conditions: INSTI-resistant 11847, TZM-bl
Procedure: as §1, §2

[8] = tested on: PI-resistant HIV-1 strain 11803; type: cell-based; conditions: PI-resistant 11803, TZM-bl
Procedure: as §1, §2

[9] = tested on: NNRTI-resistant HIV-1 strain 12243; type: cell-based; conditions: NNRTI-resistant 12243, TZM-bl
Procedure: as §1, §2

[10] = tested on: NNRTI-resistant HIV-1 strain 12241; type: cell-based; conditions: NNRTI-resistant 12241, TZM-bl
Procedure: as §1, §2

[11] = tested on: PI-resistant HIV-1 strain 11800; type: cell-based; conditions: PI-resistant 11800, PBMCs
Text: as §2
(§3) The inhibitory effects of the compounds on viral replication were determined with some minor modifications, as previously described ([12], [62]). […] PBMCs (4 × 10^5) pre-activated with PHA-M for 3 days were washed with fresh media to remove excess PHA-M and subsequently infected with HIV-1NL4-3 or HIV-1AD8 or PIs-resistant HIV-1 strains as A3.01 infection. After infection, the infectious media were replaced with fresh media supplemented with international 10 units (IU)/mL of IL-2 and the indicated compounds. At 72 h after infection, the inhibitory effect of the compounds on viral replication was determined by measuring the p24 amount, an HIV capsid protein, using an HIV-1 p24 […] kit (PerkinElmer, Waltham, MA, USA). Cell viability was determined as described above. The inhibitory effects on provirus reversing in J1.1 and J-Lat 6.3 cells were determined as previously described ([12], [41], [63]) with some minor modifications.

[12] = tested on: PI-resistant HIV-1 strain 11803; type: cell-based; conditions: PI-resistant 11803, PBMCs
Text: as §2, §3

Row | SMILES | FC (mutant EC50 / WT EC50) [1] | FC (mutant EC50 / WT EC50) [2] | FC (mutant EC50 / WT EC50) [3] | FC (mutant EC50 / WT EC50) [5] | FC (mutant EC50 / WT EC50) [7] | FC (mutant EC50 / WT EC50) [9] | FC (mutant EC50 / WT EC50) [10] | FC (mutant EC50 / WT EC50) [11] | FC (mutant EC50 / WT EC50) [12] | other results
1 | Nc1nc(NC2CC2)c2ncn([C@H]3C=C[C@@H](CO)C3)c2n1 [ABC, abacavir] | 1.83 | >8.17 | >8.17 |  |  |  |  |  |  | 
2 | Cc1cn([C@H]2C[C@H](N=[N+]=[N-])[C@@H](CO)O2)c(=O)[nH]c1=O [AZT, zidovudine] | 149.27 |  | >909.09 |  |  |  |  |  |  | 
3 | Nc1ccn([C@@H]2CS[C@H](CO)O2)c(=O)n1 [Compound 3TC, lamivudine] | 2.96 | >81.3 | >81.3 |  |  |  |  |  |  | 
4 | Cc1[nH]c2ccc(-c3nnc(SCC(=O)N4CCCCC4)o3)cc2c1C [Compound 9, 2-((5-(2,3-Dimethyl-1H-indol-5-yl)-1,3,4-oxadiazol-2-yl)thio)-1-(piperidin-1-yl)ethan-1-one] | 0.52 | 0.65 | 0.52 | 0.58 | 0.56 | 0.49 | 0.56 | 5.4 | 2.6 | fold change of EC50 against NRTI-resistant viruses [4]: 0.52–0.93; FC (mutant EC50 / WT EC50) [6]: 0.63; FC (mutant EC50 / WT EC50) [8]: 0.56
5 | Cc1[nH]c2ccc(-c3nnc(SCC(=O)N4CCCC4)o3)cc2c1C [Compound 13, 2-((5-(2,3-Dimethyl-1H-indol-5-yl)-1,3,4-oxadiazol-2-yl)thio)-1-(pyrrolidin-1-yl)ethan-1-one] | 0.76 | 0.80 | 0.93 | 1.16 | 0.69 | 0.90 | 0.99 | 7.8 | 2.7 | fold change of EC50 against NRTI-resistant viruses [4]: 0.52–0.93; FC (mutant EC50 / WT EC50) [6]: 0.64; FC (mutant EC50 / WT EC50) [8]: 0.80
6 | CC(C)CN(C[C@@H](O)[C@H](Cc1ccccc1)NC(=O)O[C@H]1CO[C@H]2OCC[C@H]21)S(=O)(=O)c1ccc(N)cc1 [DRV, darunavir] |  |  |  |  |  |  |  | >1000 | >1000 | 
7 | C[C@@H]1CCO[C@H]2Cn3cc(C(=O)NCc4ccc(F)cc4F)c(=O)c(O)c3C(=O)N12 [DTG, dolutegravir, reference compound] |  |  |  | 9.92 | 13.75 |  |  |  |  | 
8 | O=C1Nc2ccc(Cl)cc2[C@@](C#CC2CC2)(C(F)(F)F)O1 [EFV, efavirenz, reference compound] |  |  |  |  |  | >1000 | >1000 |  |  | 
9 | Cc1c(O)cccc1C(=O)N[C@@H](CSc1ccccc1)[C@H](O)CN1C[C@H]2CCCC[C@H]2C[C@H]1C(=O)NC(C)(C)C [NFV, nelfiravir] |  |  |  |  |  |  |  | >1000 | >1000 | 
10 | Cc1ccnc2c1NC(=O)c1cccnc1N2C1CC1 [NVP, nevirapine, reference compound] |  |  |  |  |  | 398.5 | >1000 |  |  | 
11 | Cc1nnc(C(=O)NC(C)(C)c2nc(C(=O)NCc3ccc(F)cc3)c(O)c(=O)n2C)o1 [RAL, raltegravir, reference compound] |  |  |  | >1000 | >1000 |  |  |  |  | 
12 | CC(C)(C)NC(=O)[C@@H]1C[C@@H]2CCCC[C@@H]2CN1C[C@@H](O)[C@H](Cc1ccccc1)NC(=O)[C@H](CC(N)=O)NC(=O)c1ccc2ccccc2n1 [SQV, sequinavir] |  |  |  |  |  |  |  | 0.68 | 150.93 | 
